This is an account of results in article PMC5028891, “Structural basis for disruption of claudin assembly in tight junctions by an enterotoxin” (2016).

Holding throughout (assay): pull-down
The target of assay [1] is human claudin-4 (full-length) F35A, human, O14493 1-209.
For assay [2], the target named is human claudin-4 (full-length) N53A, human, O14493 1-209.
Assay [3] concerns the target human claudin-4 (full-length) N53D, human, O14493 1-209.

Consider “glutathione-S-transferase-tagged C-CPE (residues 185′–319′), wild type F35A”, for which the result in assay [1] is “binds”.
On to “glutathione-S-transferase-tagged C-CPE (residues 185′–319′), wild type N53A”, for which, in assay [2], the result is “binds”.
Turning to “glutathione-S-transferase-tagged C-CPE (residues 185′–319′), wild type N53D”, the result in assay [3] was “binds”.
